Data taken from publication doi:10.1101/2025.11.18.689095, “Molecular mechanism by which SARS-CoV-2 Orf9b suppresses the Tom70-Hsp90 interaction to evade innate immunity” (bioRxiv, 2025).

What was measured:
Tom70:Orf9b complex = type: binding, human Tom70; SARS-CoV-2 Orf9b; settings: pH 7
Tom70-Hsp90 interaction = type: binding, human

In the case of “Orf9b: SARS-CoV-2 Orf9b (residues 1–97), co-expressed with Tom70”, the “association rate of Hsp90 to Tom70 in presence of Orf9b (in words)” value (Tom70:Orf9b complex) is reported as “significantly reduced”, the “change in koff of Hsp90-Tom70 by Orf9b” value (Tom70:Orf9b complex) is reported as 3 fold and the “inhibitory effect exceeds that of the Orf9bHelix” value (Tom70-Hsp90 interaction) is reported as 2.4 fold. For the same substance, the “reduction of Hsp90 binding affinity compared to binding to free Tom70” value (Tom70-Hsp90 interaction; pH 8) was 7.3 fold.
